Anti-infective test results gathered from many reports (values: NIAID ChemDB through PubChem).

Shared fields: growth or infection tests; agent: Mycobacterium tuberculosis

a–b is a range or a potency band. Inhibition is in % at the dose shown (toxicity tests: loss of growth or viability). An empty or dashed field is not shown. ECn: concentration that inhibits the pathogen or its effect by n%. A number after MIC or MFC names an inhibition level or a share of isolates. Rows are shuffled and stem from different studies. MIC bound: limit read from a one-dose screen.

structure	method	tested at	conditions	strain or isolate	endpoint	result
O=C1C=C(Br)c2c(-c3ccccc3)oc3cccc1c23	BACTEC			H37Rv	MIC bound	>12.5 µg/mL
CN(C)C/C=C(/c1ccccc1)c1ccc(-c2ccc(Br)cc2)cc1				ALI 452	MIC	≤5 µg/mL
CCC/[N+]([O-])=C/c1ccc([N+](=O)[O-])o1	BACTEC			H37Rv	MIC bound	>12.5 µg/mL
CCOC(=O)Cc1cc(C2CCCCC2)nc2ccccc12		6.25 µg/mL		H37Rv	inhibition	47%
O=C(NCc1ccc(N2CCN(Cc3ccccc3)CC2)cc1)c1ccc([N+](=O)[O-])o1				UT29	MIC	0.024 µg/mL
Cc1ccc(C(=O)N/N=C/c2ccc(N(C)C)cc2Cl)cc1	BACTEC	12.5 µg/mL		H37Rv	inhibition	0%
CCn1cc(C(=O)O)c(=O)c2cc(F)c(N3CCNCC3)cc21				CIPT 140010072	MIC	10 µg/mL
C=C(C(=O)OC)N1C(=O)C[C@@H](C)C1=O	BACTEC			H37Rv	MIC bound	>12.5 µg/mL
CCOC(=O)C1=C(C)N(c2ccc(F)c(Cl)c2)C(=O)NC1c1ccccc1[N+](=O)[O-]	resazurin			H37Rv	MIC	>6.25 µg/mL
O=C(NCc1cccnc1)c1cc(Br)cc(Br)c1O			14 d	H37Rv	MIC	125 µM
CO[C@H]1/C=C/O[C@@]2(C)Oc3c(C)c(O)c4c(O)c(c(/C=N/N5CCN(C)CC5)c(O)c4c3C2=O)NC(=O)/C(C)=C\C=C\[C@H](C)[C@H](O)[C@@H](C)[C@@H](O)[C@@H](C)[C@H](OC(C)=O)[C@@H]1C				H37RV 102	MIC	1 µg/mL
O=C(NCc1ccccn1)c1cc(Br)cc(Br)c1O			14 d	H37Rv	MIC	125 µM
COc1cc2c(cc1OC)[Se](Br)(Br)c1cc(OC)c(OC)cc1[Se]2	BACTEC			H37Rv	MIC bound	>12.5 µg/mL
CCOC(=O)C1=C(C)N(c2ccc(F)c(Cl)c2)C(=O)NC1c1ccc(OC)c(OC)c1	resazurin			H37Rv	MIC	>6.25 µg/mL
COC(=O)c1ccc2c(C3CCCCC3)cccc2n1		6.25 µg/mL		H37Rv	inhibition	43%
CC1COc2c(N3CCN(C)CC3)c(F)cc3c(=O)c(C(=O)O)cn1c23					MIC	0.5–2 µg/mL
CC(C)(C)C1CCc2c(sc(NC(=S)NC(=O)c3ccccc3)c2C#N)C1	MTT			H37Rv	MIC	31 µM
O=[N+]([O-])c1ccc(C2=NOC(c3ccc(N4CCN(Cc5ccccc5)CC4)cc3)C2)o1				UT29	MIC	0.012 µg/mL
CC#CC#C/C(=C/C=C/C(=O)OC)SC	BACTEC			H37Rv	MIC	≥12.5 µg/mL
CN(C)CC=C(c1ccccc1)c1ccc(-c2ccc(Br)cc2)cc1				ALI 3415	MIC	40 µg/mL
COc1cc2c(c3[nH]cc(C(=O)O)c(=O)c13)NC(=O)CS2		6.25 µg/mL		H37Rv	inhibition	-11%
COC(=O)c1ccc2c(C3CCCC3)cccc2n1		6.25 µg/mL		H37Rv	inhibition	97%
O=C(NCc1ccc(Br)cc1)c1nnc(-c2ccccn2)[nH]c1=O				H37Rv	MIC	>32 µg/mL
CN(C)C/C=C(\c1ccc(Cl)cc1)c1ccc(-c2ccc(Br)cc2)cc1				ALI 452	MIC	≤5 µg/mL
COc1ccc(C(=O)NCc2cccnc2)c(O)c1			14 d	H37Rv	MIC	500 µM
CO[C@H]1/C=C/O[C@@]2(C)Oc3c(C)c(O)c4c(O)c(c(/C=N/N(C)c5ccccc5)c(O)c4c3C2=O)NC(=O)/C(C)=C\C=C\[C@H](C)[C@H](O)[C@@H](C)[C@@H](O)[C@@H](C)[C@H](OC(C)=O)[C@@H]1C				H37Rv	MIC	0.02 µg/mL
O=C(NCc1cccnc1)c1cc(Cl)ccc1O			21 d	H37Rv	MIC	500 µM
CO/N=C/c1c2c(O)c3c(O)c(C)c4c(c3c1O)C(=O)[C@@](C)(O/C=C/[C@H](OC)[C@@H](C)[C@@H](OC(C)=O)[C@H](C)[C@H](O)[C@H](C)[C@@H](O)[C@@H](C)/C=C/C=C(/C)C(=O)N2)O4				H37Rv	MIC	0.1 µg/mL
CN(C)C/C=C(\c1ccc(O)cc1)c1ccc(-c2ccccc2)cc1				ALI 3236	MIC	49 µg/mL
O=CNNc1ccc2nnc(Cl)n2n1	BACTEC			H37Rv	MIC bound	>12.5 µg/mL
COC(=O)c1cc(C2CCCCC2)c2c(C3CCCCC3)cccc2n1		6.25 µg/mL		H37Rv	inhibition	99%
C=C1C(=O)O[C@H]2[C@H]1CC/C(C)=C/CC[C@@]1(C)O[C@@H]21	BACTEC	12.8 µg/mL		H37Rv	inhibition	51%
CCCCCCCCCC(=O)N[C@H]1[C@H](Oc2c3cc4cc2Oc2ccc(cc2Cl)[C@@H](O[C@@H]2O[C@H](CO)[C@@H](O)[C@H](O)[C@H]2NC(C)=O)[C@@H]2NC(=O)[C@H](NC(=O)[C@@H]4NC(=O)[C@H]4NC(=O)[C@@H](Cc5ccc(c(Cl)c5)O3)NC(=O)[C@H](N)c3ccc(O)c(c3)Oc3cc(O)cc4c3)c3ccc(O)c(c3)-c3c(O[C@H]4O[C@H](CO)[C@@H](O)[C@H](O)[C@@H]4O)cc(O)cc3[C@H](C(=O)O)NC2=O)O[C@H](CO)[C@@H](O)[C@@H]1O				L1913	MIC	>64 µg/mL
CCOC(=O)C1=C(C)N(c2ccc(F)c(Cl)c2)C(=O)NC1c1ccc(OC)cc1	resazurin			H37Rv	MIC	>6.25 µg/mL
CCC1CN2CCc3cc(OC)c(OC)cc3C2CC1CC1c2cc(OC)c(OC)cc2CCN1N=O	BACTEC			H37Rv	MIC	12.5 µg/mL
COc1ccc(CNC(=O)c2nnc(-c3ccccn3)[nH]c2=O)cc1				H37Rv	MIC	>32 µg/mL
CO[C@H]1/C=C/O[C@@]2(C)Oc3c(C)c(O)c4c(=O)c(c5oc6cc(N7CCN(CC(C)C)CC7)cc(=O)c6nc5c4c3=C2O)NC(=O)/C(C)=C\C=C\[C@H](C)[C@H](O)[C@@H](C)[C@@H](O)[C@@H](C)[C@H](OC(C)=O)[C@@H]1C				Kurono	MIC	0.004 µg/mL
O=C(NCCCn1ccnc1[N+](=O)[O-])C(=O)NCCCn1ccnc1[N+](=O)[O-]	resazurin	6.25 µg/mL		H37Rv	inhibition	6%
Cc1cccn2c(=O)c3cc(C(=O)NCc4ccco4)c(=N)n(CCCO)c3nc12				H37Rv (ATCC 27294)	EC50	45 µg/mL
CO[C@H]1/C=C/O[C@@]2(C)Oc3c(C)c(O)c4c(O)c(c(/C=N/N5CCN(C)CC5)c(O)c4c3C2=O)NC(=O)/C(C)=C\C=C\[C@H](C)[C@H](O)[C@@H](C)[C@@H](O)[C@@H](C)[C@H](OC(C)=O)[C@@H]1C	resazurin / absorbance			H37Rv	EC50	0.55 µM
COc1ccc(Br)cc1/C=C1\N=C(C2CCCCC2)OC1=O	MTT			H37Rv	MIC	68.6 µM
CN(C)C/C=C(/c1ccc(-c2ccc(Br)cc2)cc1)c1ccc(S(C)(=O)=O)cc1				H37Ra	MIC	68 µg/mL
CC1COc2c(N3CCN(C)CC3)c(F)cc3c(=O)c(C(=O)O)cn1c23				Isolate 870729	MIC	<0.5 µg/mL
CO[C@H]1/C=C/O[C@@]2(C)Oc3c(C)c(O)c4c(O)c(c(/C=N/N5CCCC5)c(O)c4c3C2=O)NC(=O)/C(C)=C\C=C\[C@H](C)[C@H](O)[C@@H](C)[C@@H](O)[C@@H](C)[C@H](OC(C)=O)[C@@H]1C				H37Rv	MIC	0.2 µg/mL
CC(C)CC(NC(=O)OCc1ccccc1)C(=O)NN	BACTEC	12.5 µg/mL		H37Rv	inhibition	-1%
CO[C@H]1/C=C/O[C@@]2(C)Oc3c(C)c(O)c4c(O)c(c(C=NN)c(O)c4c3C2=O)NC(=O)/C(C)=C\C=C\[C@H](C)[C@H](O)[C@@H](C)[C@@H](O)[C@@H](C)[C@H](OC(C)=O)[C@@H]1C				H37Rv	MIC	1 µg/mL
CCOC(=O)C1=C(C)N(c2ccc(F)c(Cl)c2)C(=O)NC1c1ccc(F)cc1	resazurin			H37Rv	MIC	>6.25 µg/mL
CN(C)CCn1c(=O)c2ccc(NCCNCCO)c3c(=O)c4ccccc4n(c1=O)c23.Cl	resazurin	6.25 µg/mL		H37Rv	inhibition	3%
COc1cc(/C=C2/C(=O)NN(c3ccc(Cl)cc3)C2=O)cc([N+](=O)[O-])c1O	MTT			mc4914	MIC	3.2 µM
COC(=O)/C1=C/c2c([nH]c3ccc(Br)cc23)/C(C(=O)OC)=C\c2c1[nH]c1ccc(Br)cc21	resazurin / absorbance			H37Rv	EC50	1.98 µM
Cc1ccc(C(=O)NCc2cccnc2)c(O)c1			14 d	H37Rv	MIC	250 µM
NC1=NC(=O)/C(=C/C=C/c2ccc([N+](=O)[O-])o2)S1	MTT			mc4914	MIC	26.9 µM
Cc1cccc(C(=O)NCc2cccnc2)c1O			14 d	H37Rv	MIC	250 µM
CCn1cc(C(=O)O)c(=O)c2cc(F)c(N3CCN(C)CC3)cc21					MIC90	16 µg/mL
O=C(N=Nc1c(O)[nH]c2cc(Cl)ccc12)Nc1ccc(Cl)cc1		6.25 µg/mL		H37Rv	inhibition	<20%
CO[C@H]1/C=C/O[C@@]2(C)Oc3c(C)c(O)c4c(O)c(c(/C=N/NS(=O)(=O)c5ccc(C)cc5)c(O)c4c3C2=O)NC(=O)/C(C)=C\C=C\[C@H](C)[C@H](O)[C@@H](C)[C@@H](O)[C@@H](C)[C@H](OC(C)=O)[C@@H]1C				H37Rv	MIC	1 µg/mL
O=C(NCc1cccnc1)c1cc(Cl)cc(Cl)c1O			14 d	H37Rv	MIC	250 µM
CCN(CC)C(=O)COc1cc2c(O)c3c(O)c(C)c4c(c13)C(=O)[C@@](C)(O/C=C/[C@H](OC)[C@@H](C)[C@@H](OC(C)=O)[C@H](C)[C@H](O)[C@H](C)[C@@H](O)[C@@H](C)/C=C/C=C(/C)C(=O)N2)O4				H37RV ATCC9360	MIC	0.2 µg/mL
CCn1cc(C(=O)O)c(=O)c2cc(F)c(N3CCNC(C)C3)c(F)c21					MBC	2–4 µg/mL
O=C(NCc1ccccc1F)c1nnc(-c2ccccn2)[nH]c1=O				H37Rv	MIC	32 µg/mL
O=C(NCc1ccccn1)c1cc(Br)ccc1O			14 d	H37Rv	MIC	250 µM
Cc1ccc(/C=C2\N=C(c3ccc([N+](=O)[O-])cc3Cl)OC2=O)o1	MTT			H37Rv	MIC	113 µM
COC(=O)c1cc2ccccc2nc1C1CCCC1		6.25 µg/mL		H37Rv	inhibition	28%
CC1=C(C(=O)Nc2ccc(C)cc2)C(c2ccccc2)NC(=O)N1c1ccc(F)c(Cl)c1	resazurin			H37Rv	MIC	>6.25 µg/mL
O=C1NC(CCO)C(=O)NC1CCO	BACTEC			H37Rv	MIC	≥12.5 µg/mL
Cc1cccc(CNC(=O)c2nnc(-c3ccccn3)[nH]c2=O)c1				H37Rv	MIC	16 µg/mL
COC(=O)C(C(=O)C(N)=O)c1csc(-n2nc(-c3ccccc3)cc2-c2ccccc2)n1	resazurin			H37Rv	MIC bound	>6.25 µg/mL
CC1=C(C(=O)Nc2ccc(C)cc2)C(c2ccccc2Cl)NC(=O)N1c1ccc(F)c(Cl)c1	resazurin			H37Rv	MIC	>6.25 µg/mL
CS(=O)(=O)OCCN(CCOS(C)(=O)=O)c1ccc(N=Nc2ccccc2C(=O)O)cc1	resazurin	6.25 µg/mL		H37Rv	inhibition	-7%
O=C1OC(c2ccccc2)=N/C1=C\C(Cl)=C\c1ccccc1	MTT			H37Rv	MIC	40.4 µM
CN1C(=O)N(C)C2CC(=O)c3c(ccc4c3ncn4C)N2C1=O	BACTEC			H37Rv	MIC	≥12.5 µg/mL
O=C(NCc1ccc(N2CCN(Cc3ccccc3)CC2)nc1)c1ccc([N+](=O)[O-])o1				UT15	MIC	0.012 µg/mL
CCOC(=O)CSc1nc(N)c2c3c(sc2n1)CC(C(C)(C)C)CC3	MTT			H37Rv	MIC	1 µM
CC(C)=CCC/C(C)=C/COc1ccc(/C=C2\C(=O)N(O)[C@@H](C)C(=O)N2O)cc1				TAC-R	MIC	>12.5 µg/mL
CO[C@H]1/C=C/O[C@@]2(C)Oc3c(C)c(O)c4c(O)c(c(/C=N/OCc5ccccc5)c(O)c4c3C2=O)NC(=O)/C(C)=C\C=C\[C@H](C)[C@H](O)[C@@H](C)[C@@H](O)[C@@H](C)[C@H](OC(C)=O)[C@@H]1C				H37Rv	MIC	0.5 µg/mL
COc1ccc2c(c1)[n+]([O-])c(/C(C)=N/NC(=O)c1ccccc1O)c(C)[n+]2[O-]	BACTEC	12.5 µg/mL		H37Rv	inhibition	99%
O=C(O)c1cc(C2CCCC2)nc2ccccc12		6.25 µg/mL		H37Rv	inhibition	4%
CC1(C)C(=O)CCC(=O)C(C)(C)C2=CC=C(O2)C(C)(C)C(=O)CCC(=O)C(C)(C)C2=CC=C1O2	BACTEC	12.5 µg/mL		H37Rv	inhibition	13%
O=C(NCc1cccnc1)c1cc(Br)ccc1O			21 d	H37Rv	MIC	125 µM

The last 7 rows once more:

structure	method	tested at	conditions	strain or isolate	endpoint	result
CCOC(=O)CSc1nc(N)c2c3c(sc2n1)CC(C(C)(C)C)CC3	MTT			H37Rv	MIC	1 µM
CC(C)=CCC/C(C)=C/COc1ccc(/C=C2\C(=O)N(O)[C@@H](C)C(=O)N2O)cc1				TAC-R	MIC	>12.5 µg/mL
CO[C@H]1/C=C/O[C@@]2(C)Oc3c(C)c(O)c4c(O)c(c(/C=N/OCc5ccccc5)c(O)c4c3C2=O)NC(=O)/C(C)=C\C=C\[C@H](C)[C@H](O)[C@@H](C)[C@@H](O)[C@@H](C)[C@H](OC(C)=O)[C@@H]1C				H37Rv	MIC	0.5 µg/mL
COc1ccc2c(c1)[n+]([O-])c(/C(C)=N/NC(=O)c1ccccc1O)c(C)[n+]2[O-]	BACTEC	12.5 µg/mL		H37Rv	inhibition	99%
O=C(O)c1cc(C2CCCC2)nc2ccccc12		6.25 µg/mL		H37Rv	inhibition	4%
CC1(C)C(=O)CCC(=O)C(C)(C)C2=CC=C(O2)C(C)(C)C(=O)CCC(=O)C(C)(C)C2=CC=C1O2	BACTEC	12.5 µg/mL		H37Rv	inhibition	13%
O=C(NCc1cccnc1)c1cc(Br)ccc1O			21 d	H37Rv	MIC	125 µM